Measured values from several laboratories, pooled; numbers as filed in NIAID ChemDB.

Common to all: growth or infection tests; organism: HIV-1; cell line: MT-2; endpoint: EC50

An empty or dashed field is not shown. ECn is the concentration giving n% inhibition of infection, replication or growth. Conditions beyond the fields shown may differ between rows.

Nc1nc2c(ncn2[C@H]2CO[C@@H](CO)O2)c(=O)[nH]1 ; strain or isolate: HXB2D (RT D67N K70R T215Y) ; mutations: RT-D67N K70R T215Y ; result: 0.0027 µM
COC(=O)N[C@H](C(=O)N[C@@H](Cc1ccccc1)[C@@H](O)CN(Cc1ccc(-c2ccccn2)cc1)NC(=O)[C@@H](NC(=O)OC)C(C)(C)C)C(C)(C)C ; strain or isolate: RF ; read by: RT activity ; result: 0.00389 µM
O=C1N(Cc2cccc(-c3ccn[nH]3)c2)[C@H](Cc2ccc(OCc3ccncc3)cc2)[C@H](O)[C@@H](O)[C@@H](Cc2ccc(OCc3ccncc3)cc2)N1Cc1cccc(-c2ccn[nH]2)c1 ; strain or isolate: RF ; read by: hybridisation ; result: <0.018 µM
Nc1nc(N)c2ncn([C@H]3CO[C@@H](CO)O3)c2n1 ; result: 3.3 µM
O=C1N(Cc2cccc(-c3ccn[nH]3)c2)[C@H](Cc2ccc(OCc3cccnc3)cc2)[C@H](O)[C@@H](O)[C@@H](Cc2ccc(OCc3cccnc3)cc2)N1Cc1cccc(-c2ccn[nH]2)c1 ; strain or isolate: RF ; read by: hybridisation ; result: <0.032 µM
CO[C@H]1O[C@@H](n2ccc(=O)[nH]c2=O)C[C@@H]1N=[N+]=[N-] ; strain or isolate: PD165BC(RT-L92I) ; mutations: RT-L92I ; read by: RT activity ; result: 0.84 µM
Cc1c(O)cccc1C(=O)N[C@@H](CSc1ccccc1)[C@H](O)CN1C[C@H]2CCCC[C@H]2C[C@H]1C(=O)NC(C)(C)C ; strain or isolate: BRU ; read by: RT activity ; result: 0.0234 µM
Nc1ccn([C@H]2CC[C@@H](CO)O2)c(=O)n1 ; strain or isolate: K65R(RT-K65R) ; mutations: RT-K65R ; read by: p24 ; result: 1.3 µM
Nc1nc(NC2CC2)c2ncn([C@H]3C=C[C@@H](CO)C3)c2n1 ; strain or isolate: IIIB ; read by: ATP ; result: 0.32 µM
O=C1N(c2ccccc2)c2ccccc2C1(CC1=CCN(CC2CC2)CC1)CC1=CCN(CC2CC2)CC1 ; strain or isolate: RF ; read by: plaque count ; result: >10 µM
O=C1N(Cc2ccccc2)[C@H](Cc2ccc(OCCO)cc2)[C@H](O)[C@@H](O)[C@@H](Cc2ccc(OCCO)cc2)N1Cc1ccccc1 ; strain or isolate: RF ; read by: hybridisation ; result: <0.078 µM
Cc1ccnc2c1NC(=O)c1cccnc1N2C1CC1 ; strain or isolate: R82150 (RT-L100I) ; mutations: RT-L100I ; read by: cytopathic effect ; result: 0.3 µM
Cc1ncn(-c2ncc(F)c3c(C(=O)C(=O)N4CCC(C(c5ccccc5)c5nccn5C)CC4)c[nH]c23)n1 ; strain or isolate: LAI ; read by: luciferase / reporter gene / single cycle ; result: <0.5 µM
Cc1cn([C@H]2C[C@H](N=[N+]=[N-])[C@@H](CO)O2)c(=O)[nH]c1=O ; strain or isolate: HXB2D (RT D67N K70R T215Y) ; mutations: RT-D67N K70R T215Y ; result: 0.0044 µM
CN1CC=C(CC2(CC3=CCN(C)CC3)C(=O)N3c4ccccc4CCc4cccc2c43)CC1 ; strain or isolate: IIIB ; read by: cytopathic effect / XTT ; result: 1.9 µM
CC(C)=CCN1Cc2cccc3[nH]c(=S)n(c23)C[C@@H]1C ; strain or isolate: IIIB (BI-RG-587-RS) ; read by: cytopathic effect / MTT ; result: 6.3 µM
CC(C)=CCN1Cc2cccc3[nH]c(=S)n(c23)C[C@@H]1C ; strain or isolate: IIIB ; read by: cytopathic effect ; result: 0.16 µM
Cc1cn([C@H]2C[C@H](N=[N+]=[N-])[C@@H](CO)O2)c(=O)[nH]c1=O ; strain or isolate: IIIB (BI-RG-587-RS) ; read by: cytopathic effect / MTT ; result: 0.13 µM
Cc1cn([C@H]2C[C@H](N=[N+]=[N-])[C@@H](CO)O2)c(=O)[nH]c1=O ; strain or isolate: MN ; read by: p24 ; result: 0.007 µM
COc1ccc(C[C@@H]2[C@H](O)[C@@H](O)[C@@H](Cc3ccc(OC)cc3)N(Cc3cccc(-c4ccn[nH]4)c3)C(=O)N2Cc2cccc(-c3ccn[nH]3)c2)cc1 ; strain or isolate: RF ; read by: hybridisation ; result: <0.01 µM
CN1CC=C(Cc2cn(-c3ccccc3)c3ccccc23)CC1 ; strain or isolate: IIIB ; read by: cytopathic effect / XTT ; result: 4.4 µM
CC(C)(C)NC(=O)[C@@H]1C[C@@H]2CCCC[C@@H]2CN1C[C@@H](O)[C@H](Cc1ccccc1)NC(=O)[C@H](CC(N)=O)NC(=O)c1ccc2ccccc2n1 ; strain or isolate: RF ; mutations: PR-G48V I54V A71T V82A ; result: 0.16 µM
Cc1cn([C@H]2C=C[C@@H](CO)O2)c(=O)[nH]c1=O ; mutations: RT-delta67 K103N ; read by: p24 ; result: 0.378 µM
Nc1ncnc2c1ncn2[C@H]1C=C[C@@H](OCP(=O)(O)O)O1 ; strain or isolate: IIIB ; mutations: M41L D67N K70R L210W T215F K219Q ; read by: ATP ; result: 2.1 µM
Nc1ccn([C@H]2CC[C@@H](CO)O2)c(=O)n1 ; strain or isolate: HXB2D (RT-K65R) ; mutations: RT-K65R ; read by: XTT ; result: >30 µM
CC(C)CN(C[C@@H](O)[C@H](Cc1ccccc1)NC(=O)[C@@H](NC(=O)CNCc1cccc(F)c1)C(C)(C)C)S(=O)(=O)c1cccc(N)c1 ; strain or isolate: RF ; read by: virus yield ; result: <0.0041 µM
O=c1[nH]cnc2c1ncn2[C@H]1CC[C@@H](CO)O1 ; strain or isolate: L214F(RT-L214F) ; mutations: RT-L214F ; read by: p24 ; result: 1.2 µM
O=C1N(c2ccccc2)c2ccccc2C1(Cc1ccccc1)Cc1ccncc1 ; strain or isolate: IIIB ; read by: cytopathic effect / XTT ; result: 28.1 µM
Cc1cn([C@H]2C=C[C@@H](CO)O2)c(=O)[nH]c1=O ; strain or isolate: Clinical isolate ; mutations: M41L/A98G/K103N/M184V/L210W/T215Y ; read by: recombinant virus assay ; result: 1.584 µM
Nc1ccn([C@H]2CC[C@@H](CO)O2)c(=O)n1 ; strain or isolate: PDBC ; read by: RT activity ; result: 0.23 µM
C[C@@H]1CN2CCC[C@@H]3CCCCC[C@@H]4C(=O)[C@@H](C)CN5CCC[C@@H](CCCCC[C@@H](C1=O)[C@H]32)[C@H]45 ; strain or isolate: MN ; read by: p24 ; result: 52.98 µM
Nc1nc(=O)n([C@@H]2CS[C@H](CO)O2)cc1F ; strain or isolate: IIIB ; read by: ATP ; result: 0.39 µM
O=C1N(c2ccccc2)c2ccccc2C1(Cc1nccn1Cc1ccccc1)Cc1nccn1Cc1ccccc1 ; strain or isolate: IIIB ; read by: cytopathic effect / XTT ; result: 1.3 µM
Cc1cn([C@H]2C=C[C@@H](CO)O2)c(=O)[nH]c1=O ; strain or isolate: HXB2D (RT D67N K70R T215Y) ; mutations: RT-D67N K70R T215Y ; result: 0.0118 µM
Cc1cn([C@H]2C=C[C@@H](CO)O2)c(=O)[nH]c1=O ; strain or isolate: IIIB (BI-RG-587-RS) ; read by: cytopathic effect / MTT ; result: 3.5 µM
O=c1[nH]cnc2c1ncn2[C@@H]1O[C@H](OCP(=O)(O)O)C=C1F ; strain or isolate: IIIB ; read by: ATP ; result: >300 µM
CC(C)(C)NC(=O)[C@@H]1C[C@@H]2CCCC[C@@H]2CN1C[C@@H](O)[C@H](Cc1ccccc1)NC(=O)[C@H](CC(N)=O)NC(=O)c1ccc2ccccc2n1 ; strain or isolate: BRU ; read by: RT activity ; result: 0.0121 µM
O=C1N(Cc2ccccc2)[C@H](Cc2ccc(O)cc2)[C@H](O)[C@@H](O)[C@@H](Cc2ccc(O)cc2)N1Cc1ccccc1 ; strain or isolate: RF ; read by: hybridisation ; result: <0.184 µM
Nc1ncnc2c1ncn2[C@@H]1O[C@H](CO)C[C@@H]1F ; strain or isolate: RT P119S L214F ; mutations: RT-P119S L214F ; read by: p24 ; result: 14 µM
CN1CC=C(CC2(Cc3ccccc3)C(=O)N(c3ccccc3)c3ccccc32)CC1 ; strain or isolate: IIIB ; read by: cytopathic effect / XTT ; result: 4.9 µM
Cc1cn([C@H]2C[C@H](N=[N+]=[N-])[C@@H](CO)O2)c(=O)[nH]c1=O ; strain or isolate: T215Y(RT-T215Y) ; mutations: RT-T215Y ; read by: p24 ; result: 0.09 µM
Nc1nc(=O)n([C@@H]2CS[C@H](CO)O2)cc1F ; strain or isolate: Clinical isolate ; mutations: M41L/D67N/K70R/Y181C/G190A/L210W/T215Y/K219E ; read by: recombinant virus assay ; result: 0.8256 µM
Cc1c(Sc2ccccc2)n(COCCO)c(=O)[nH]c1=O ; strain or isolate: IIIB (BI-RG-587-RS) ; read by: cytopathic effect / MTT ; result: >100 µM
Nc1ccn([C@H]2CC[C@@H](CO)O2)c(=O)n1 ; strain or isolate: R82150 (RT-L100I) ; mutations: RT-L100I ; read by: cytopathic effect ; result: 0.11 µM
Nc1nc(NC2CC2)c2ncn([C@H]3C=C[C@@H](CO)C3)c2n1 ; strain or isolate: RT Δ.67 T69G K103N ; mutations: 1 (Δ.67+T69G+K103N) ; read by: p24 ; result: 0.178 µM
CCCCOC(=O)[C@H](C)NP(=O)(CO[C@@H]1C=C(F)[C@H](n2cnc3c(N)ncnc32)O1)N[C@@H](C)C(=O)OCCCC ; strain or isolate: IIIB ; read by: ATP ; result: 0.041 µM
Cc1cn([C@H]2C=C[C@@H](CO)O2)c(=O)[nH]c1=O ; strain or isolate: R82150 (RT-L100I) ; mutations: RT-L100I ; read by: cytopathic effect ; result: 1.8 µM

The last 4 rows once more:

| SMILES | strain or isolate | mutations | read by | result |
|---|---|---|---|---|
| Nc1ccn([C@H]2CC[C@@H](CO)O2)c(=O)n1 | R82150 (RT-L100I) | RT-L100I | cytopathic effect | 0.11 µM |
| Nc1nc(NC2CC2)c2ncn([C@H]3C=C[C@@H](CO)C3)c2n1 | RT Δ.67 T69G K103N | 1 (Δ.67+T69G+K103N) | p24 | 0.178 µM |
| CCCCOC(=O)[C@H](C)NP(=O)(CO[C@@H]1C=C(F)[C@H](n2cnc3c(N)ncnc32)O1)N[C@@H](C)C(=O)OCCCC | IIIB | - | ATP | 0.041 µM |
| Cc1cn([C@H]2C=C[C@@H](CO)O2)c(=O)[nH]c1=O | R82150 (RT-L100I) | RT-L100I | cytopathic effect | 1.8 µM |